Anti-infective test results gathered from many reports (values: NIAID ChemDB through PubChem).

All rows: tests on isolated targets

Blank or dashed fields: not listed here. Rows are shuffled and stem from different studies. Fold resistance has wild type as its base. Two numbers with a dash give a range or band. ICn is the concentration giving n% inhibition. Inhibition is in % at the dose shown (toxicity tests: loss of growth or viability).

| compound | changes | target | tested at | endpoint | strain | organism | method | value |
|---|---|---|---|---|---|---|---|---|
| Nc1nc(N)c2c(n1)CCC(Cc1ccc(Cl)c(Cl)c1)C2 |  | Dihydrofolate reductase |  | IC50 | TYPE 1 | Cryptosporidium parvum |  | 0.065 µM |
| Cc1cccc(N2CCN(c3cncc(-c4cc5ccccc5s4)n3)CC2C)c1 |  | UL97 kinase |  | IC50 |  | Cytomegalovirus |  | <100 µM |
| O=C(O)CCN1C(=O)C(=Cc2ccc(-c3ccc4c(c3)OCO4)o2)SC1=S |  | NS5 polymerase |  | IC50 |  | Bovine viral diarrhea virus |  | ≤1 µM |
| Cc1ncsc1CCOc1cccc(-c2cnc3c(-c4nn[nH]n4)cnn3c2C2CCCCC2)c1 |  | RNA-dependent RNA polymerase |  | IC50 |  | Hepatitis C virus |  | 1–10 µM |
| COc1cc(NCc2csc3nc(N)nc(N)c23)cc(OC)c1OC |  | Dihydrofolate reductase |  | IC50 | TYPE 2 | Cryptosporidium parvum |  | >10 µM |
| Cc1ccc(-c2cncc(N3CCN(c4cnccn4)CC3)n2)cc1 |  | UL97 kinase |  | IC50 |  | Cytomegalovirus |  | <10 µM |
| Cc1ccc(-c2ccc(C=C3SC(=S)N(c4ccc(C(=O)O)cc4)C3=O)o2)s1 |  | NS5 polymerase |  | IC50 |  | Bovine viral diarrhea virus |  | ≤1 µM |
| Nc1nc(N)c2c(n1)CCC(c1ccccc1)C2 |  | Dihydrofolate reductase |  | IC50 | TYPE 2 | Cryptosporidium parvum |  | >10 µM |
| COc1ccccc1-c1cc(-c2ccc(C(F)(F)F)cc2)nc2cc(C(=O)O)nn12 |  | RNA-dependent RNA polymerase |  | IC50 |  | Hepatitis C virus |  | >10 µM |
| CN(C(=O)c1c(F)cc(F)cc1F)c1cc(-c2ccccc2)sc1C(=O)O |  | NS3 ATPase |  | IC50 |  | Hepatitis C virus |  | 5–20 µM |
| Nc1nc(N)c2c(ccc3cc(Br)ccc32)n1 |  | Dihydrofolate reductase |  | IC50 | TYPE 2 | Cryptosporidium parvum |  | >10 µM |
| Nc1ccn([C@@H]2CS[C@H](COP(=O)(O)OP(=O)(O)OP(=O)(O)O)O2)c(=O)n1 | RT-K103N | Reverse transcriptase |  | fold resistance |  | HIV | radiometric | 0.53 |
| Cc1c(-c2ccc(OCc3ccccc3)cc2)cnc2c(-c3nn[nH]n3)cnn12 |  | RNA-dependent RNA polymerase |  | IC50 |  | Hepatitis C virus |  | >10 µM |
| COc1cc(CC2CCc3nc(N)nc(N)c3C2)cc(OC)c1OC |  | Dihydrofolate reductase |  | IC50 | TYPE 1 | Cryptosporidium parvum |  | 0.56 µM |
| O=C(O)c1cc2nc(-c3ccc(Oc4ccccc4)cc3)cc(-c3ccc(OCc4ccccc4)cc3)n2n1 |  | RNA-dependent RNA polymerase |  | IC50 |  | Hepatitis C virus |  | >10 µM |
| CC(=O)c1ccc(-c2cncc(N3CCN(c4cccc(C)c4C)CC3)n2)cc1 |  | UL97 kinase |  | IC50 |  | Cytomegalovirus |  | <100 µM |
| O=C(O)CCN1C(=O)C(=Cc2ccc(-c3ccco3)o2)SC1=S |  | NS5 polymerase |  | IC50 |  | Bovine viral diarrhea virus |  | ≤1 µM |
| Clc1ccc(-c2cncc(N3CCN(c4ccccn4)CC3)n2)cc1 |  | UL97 kinase |  | IC50 |  | Cytomegalovirus |  | <100 µM |
| O=C(O)c1ccc(N2C(=O)C(=Cc3ccc(-c4cc5ccccc5s4)o3)SC2=S)cc1 |  | NS5 polymerase |  | IC50 |  | Bovine viral diarrhea virus |  | ≤1 µM |
| O=C(O)c1cc2nc(-c3ccc(OCc4ccccc4)cc3)c(CC3CCC3)c(=O)n2[nH]1 |  | RNA-dependent RNA polymerase |  | IC50 |  | Hepatitis C virus |  | 1–10 µM |
| CC(C)CC(=O)N(Cc1ccccc1Cl)c1cc(-c2ccccc2)sc1C(=O)O |  | NS3 ATPase |  | IC50 |  | Hepatitis C virus |  | 5–20 µM |
| Fc1ccc(-c2cncc(N3CCN(c4ccccn4)CC3)n2)cc1 |  | UL97 kinase | 1 µM | inhibition |  | Cytomegalovirus |  | <50% |
| CC(c1ccccc1)N(C(=O)c1ccc(Cl)cc1Cl)c1cc(-c2ccc(-c3ccccc3)cc2)sc1C(=O)O |  | NS3 ATPase |  | IC50 |  | Hepatitis C virus |  | <5 µM |
| c1csc(COc2ccc(-c3cnc4c(-c5nn[nH]n5)cnn4c3C3CCCCC3)cc2)c1 |  | RNA-dependent RNA polymerase |  | IC50 |  | Hepatitis C virus |  | 1–10 µM |
| O=C(O)c1ccc(N2C(=O)C(=Cc3ccc(-c4ncc(C(F)(F)F)cc4Cl)o3)SC2=S)cc1 |  | NS5 polymerase |  | IC50 |  | Bovine viral diarrhea virus |  | ≤1 µM |
| Nc1nc(N)c2cc(Cl)ccc2n1 |  | Dihydrofolate reductase |  | IC50 | TYPE 1 | Cryptosporidium parvum |  | >10 µM |
| CC(=O)c1ccc(N2CCN(c3cncc(-c4ccc(F)c(Cl)c4)n3)CC2)cc1 |  | UL97 kinase | 10 µM | inhibition |  | Cytomegalovirus |  | >15% |
| O=C(O)c1cc2nc(-c3cccc(Cl)c3)cc(-c3cccc(Cl)c3)n2n1 |  | RNA-dependent RNA polymerase |  | IC50 |  | Hepatitis C virus |  | >10 µM |
| CCOc1ccc(-c2cncc(N3CCN(c4cccc(Cl)c4)CC3)n2)cc1 |  | UL97 kinase |  | IC50 |  | Cytomegalovirus |  | <10 µM |
| Cc1ccc(C(=O)Nc2cc(-c3ccccc3)sc2C(=O)O)cc1 |  | NS3 ATPase |  | IC50 |  | Hepatitis C virus |  | 5–20 µM |

2 of the rows above, restated:

{"compound": "Nc1ccn([C@@H]2CS[C@H](COP(=O)(O)OP(=O)(O)OP(=O)(O)O)O2)c(=O)n1", "changes": "RT-K103N", "target": "Reverse transcriptase", "endpoint": "fold resistance", "organism": "HIV", "method": "radiometric", "value": "0.53"}
{"compound": "Clc1ccc(-c2cncc(N3CCN(c4ccccn4)CC3)n2)cc1", "target": "UL97 kinase", "endpoint": "IC50", "organism": "Cytomegalovirus", "value": "<100 µM"}